From patent publication US20080287356A1 (YEDA RESEARCH AND DEVELOPMENT, published 2008)

Molecular target: cell surface TNF on PMA-LPS-GM6001-activated human monocytic THPI cells (human, UniProt P01375 1-233)
Test: cell-based or functional assay

B1: non chimeric recombinant human TBP-1 (HPLC purified, of CHO origin) (receptor)
chain: DSVCPQGKYIHPQNNSICCTKCHKGTYLYNDCPGPGQDTDCRECESGSFTASENHLRHCLSCSKCRKEMGQVEISSCTVDRDTVCGCRKNQYRHYWSENLFQCFNCSLCLNGTVHLSCQEKQNTVCTCHAGFFLRENECVSCSNCKKSLECTKLCLPQIEN
  protection of activated THPI cells from TBP-YopP toxicity: 100 fold excess
